# Library screen at single concentrations

Mtb glucose medium: 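Whole-cell growth test on Mycobacterium tuberculosis, read after 3 days in glucose-containing 7H9 medium; the read-out is not stated. Concentration: 500 µM. Higher reads as more growth inhibition (inferred: compounds with an IC50 in retests scored well above the rest). Size under these conditions: about 18,000 compounds, about 1,400 of them at 50% or above in at least one test.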
Mtb cholesterol medium: 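Growth of Mycobacterium tuberculosis over 4 days (cholesterol / DPPC medium with tyloxapol); the read-out is not stated. Tested at 500 µM. Direction is inferred from retests: higher values go with more growth inhibition. Size under these conditions: about 18,000 compounds, about 900 of them at 50% or above in at least one test.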

Results are given as percent effect. How 0% and 100% were set is not recorded. Most values in the screen are low, and negative values occur. Many other results are left out here, so strong results are more common than in the screen.

{"compound": "NCCc1cc(O)cc(O)c1", "Mtb glucose medium": 13.67}
{"compound": "CN(Cc1ccnn1C)C(=O)c1ccc(Cl)cc1", "Mtb glucose medium": 41.77}
{"compound": "CCOC(=O)Cn1nnc2ccccc2c1=O", "Mtb glucose medium": 52.11, "Mtb cholesterol medium": 49.74}
{"compound": "CN1CCN(CC(O)CN(C)c2ccccn2)CC1", "stereo": "stereo not drawn", "Mtb glucose medium": 8.602}
{"compound": "Cc1onc(-c2ccccn2)c1C(=O)NC(C)C", "Mtb glucose medium": -6.042}
{"compound": "NC(=O)c1cnn(-c2ccccn2)c1N", "Mtb glucose medium": 14.82}
{"compound": "Cn1nc(C2CCCNC2)n(Cc2ccccc2)c1=O", "stereo": "stereo not drawn", "Mtb glucose medium": 11.74}
{"compound": "CCc1nc(CNC(=O)Cc2nonc2C)cs1", "Mtb glucose medium": 20.53}
{"compound": "NCCCN(C(=O)C1CCC1)C1CC1", "Mtb cholesterol medium": 13.28}
{"compound": "c1ccc(C2CCCN2)nc1", "stereo": "stereo not drawn", "Mtb cholesterol medium": 9.272}
{"compound": "NCC1CC(=O)N(C2CCCC2)C1", "stereo": "stereo not drawn", "Mtb glucose medium": 10.69}
{"compound": "CNC(=O)C(CC(C)C)NC(=O)c1ccccn1", "stereo": "stereo not drawn", "Mtb glucose medium": 4.143}
{"compound": "Nc1ccc(CN2CCOCC2)cn1", "Mtb cholesterol medium": -18.17}
{"compound": "CN1CCC(CCO)C1", "stereo": "stereo not drawn", "Mtb glucose medium": 9.367}
{"compound": "NS(=O)(=O)NCc1ccc2c(c1)OCO2", "Mtb glucose medium": 32.34, "Mtb cholesterol medium": 21.21}
{"compound": "Cc1nc(CN2Cc3ccccc3CC2C(N)=O)c[nH]1", "stereo": "stereo not drawn", "Mtb cholesterol medium": 7.638}
{"compound": "COCC1(CNC(=O)NCCC2(C)OCCO2)CCC1", "Mtb glucose medium": 10.82}
{"compound": "CCCSCCNC1CCNCC1", "Mtb glucose medium": 0.6428}
{"compound": "C[C@@]1(O)CCN(C(=O)CCc2cn[nH]c2)C[C@@H]1O", "Mtb glucose medium": 5.87}
{"compound": "Cc1ccc(C(C)CNC(=O)CCS(C)(=O)=O)cc1", "stereo": "stereo not drawn", "Mtb glucose medium": 28.28, "Mtb cholesterol medium": 8.163}
{"compound": "O=C(NCC1CCN(C2CC2)C1)c1ccccn1", "stereo": "stereo not drawn", "Mtb glucose medium": 45.57}
{"compound": "COC(=O)CCc1nnc(N)s1", "Mtb cholesterol medium": -6.943}
{"compound": "CC1CCN(C(=O)C2CCC(CN)CC2)CC1", "stereo": "stereo not drawn", "Mtb cholesterol medium": 9.722}
{"compound": "COc1cccnc1C(F)(F)F", "Mtb glucose medium": 1.292}

For reference, 3 entries once more:

With Cc1nc(CN2Cc3ccccc3CC2C(N)=O)c[nH]1 (stereo not drawn) the screen gave Mtb cholesterol medium: 7.638%.
With CCOC(=O)Cn1nnc2ccccc2c1=O the screen gave Mtb glucose medium: 52.11%; Mtb cholesterol medium: 49.74%.
With CN1CCC(CCO)C1 (stereo not drawn) the screen gave Mtb glucose medium: 9.367%.

Data taken from ChEMBL document CHEMBL3988442, “University of Dundee, Small-Polar-MMV Screening Library” (2021).